In patent US20230115711A1, “MICROMOLECULE PI4KIIIalpha INHIBITOR COMPOSITION, PREPARATION METHOD THEREFOR AND USE THEREOF” (published 2023):

What was measured:
[1] = monkeys; single oral sesame oil preparation 0.168 mg/kg
[2] = monkeys; single oral administration, MCT preparation
[3] = Dissolution rate of PAO in vegetable oil (supersaturated solutions, HPLC); conditions: in the three vegetable oils (tea, sesame, soybean oil)
[4] = In vivo kinetic study of oral and intravenous PAO in beagles (whole blood); conditions: single oral sesame oil preparation

O=[As]c1ccccc1 (stereo not shown)
time at which blood concentration reached the maximum [1]: ≤ 4 h
time at which blood concentration reached the maximum [2]: ≤ 4 h
time at which PAO substantially reached dissolution equilibrium [3]: 1 h
time at which blood concentration reached the maximum [4]: ≤ 4 h

Read-outs that look alike come from different tables or passages of the source.
